A mixed list of measured activities; the numbers were collected in NIAID ChemDB.

Shared fields: host cell toxicity; read-out: CC50

Rows are shuffled and stem from different studies.

compound,cells,method,value
COc1ccc(Br)cc1/C=C/C(=O)c1c(O)cc(/C=C/c2ccc(N(C)C)cc2)oc1=O,HCT116,MTT,>10 µM
Cc1cn2c(nc1=O)O[C@@H]1[C@H](F)[C@H]2O[C@@H]1COC(c1ccccc1)(c1ccccc1)c1ccccc1,HL-60,,>1000 µM
CCCCN1C(c2sc(C)nc2C)=NNC1SC,143B,MTT,>100 µM
Cc1cn([C@@H]2O[C@H](CO)[C@@H](F)[C@H]2N=[N+]=[N-])c(=O)[nH]c1=O,HL-60,,>1000 µM
O=C(c1ccccc1)c1ccc(NC(=O)c2cc(Cl)ccc2O)cc1,Mono Mac 6,MTT,48 µM
O=C(N/N=C/c1ccc(O)c(Cl)c1)Nc1cccc2nsnc12,Cf2Th-CD4/CCR5,luminescence,19.2 µM
COc1ccc(CSC2NN=C(c3sc(C)nc3C)N2C23CC4CC(CC(C4)C2)C3)cc1,KBALB,MTT,>100 µM
O=C(NCCCCl)Oc1ccc(Cl)cc1C(=O)Nc1ccc(Cl)c(Cl)c1,Mono Mac 6,MTT,2.5 µM
O=C(N/N=C/c1ccc(O)c(O)c1)Nc1cccc2nsnc12,Cf2Th-CD4/CCR5,luminescence,56.3 µM
CN(C)c1ccc(/C=C/C(=O)c2c(O)cc(/C=C/c3ccc(N(C)C)cc3)oc2=O)cc1,HCT116,MTT,>10 µM
CC(=O)O[C@H]1[C@@H](Oc2c(C)c(O)c3c(=O)cc(C)oc3c2C)O[C@H](CO)[C@@H](O)[C@@H]1O,HEP-2,,83.3 µg/mL
CC(C)Oc1nc(N)nc2ccc(-c3ccc(C(=O)NC4CCCCC4)cc3)nc12,Huh7,,>20 µM
O=C(Nc1ccc(Cl)c(Cl)c1)c1cc(Cl)ccc1O,Mono Mac 6,MTT,3.6 µM
CC(C)(N)C(=O)Nc1ccc(-c2ccc3nc(N)nc(NCCS(C)(=O)=O)c3n2)cc1,Huh7,,<10 µM
CCOC(=O)CCCCCOc1cccc(CN(C(=O)c2ccc(-c3ccc4[nH]ccc4c3)cc2)C(C)C)c1,HEK 293,,>20 µM
OC[C@H]1NC[C@H](O)[C@@H]1O,T CELLS,,>130 µg/mL
O=C(CSc1ncccc1C(=O)O)c1ccc(O)c(O)c1,HOS,,70 µM
Cc1nc(C)c(-c2n[nH]c(=S)n2-c2ccc3ccccc3c2)s1,143B,MTT,>100 µM
Nc1nc2c(ncn2COC2COP(=O)(O)OC2)c(=O)[nH]1,GPE,,330 µg/mL
O=C(NCCCCl)Oc1ccc(Br)cc1C(=O)Nc1ccc(Cl)c(Cl)c1,Mono Mac 6,MTT,9.5 µM
CCCCn1c(=O)c2ccccc2c2c(OC)c(C(O)(C(F)(F)F)C(F)(F)F)c3c(c21)OCO3,Replicon cells,tetrazolium,93.9 µM
O=C(N/N=C/c1ccc(O)c(Br)c1)Nc1cccc2nsnc12,Cf2Th-CD4/CCR5,luminescence,>112 µM
Cc1cn2c(nc1=O)OC1[C@H]2O[C@H](COC(c2ccccc2)(c2ccccc2)c2ccccc2)[C@H]1OC(=S)n1ccnc1,HL-60,,>1000 µM
Cc1[nH]c2ccccc2c1CCNCc1ccc(/C=C/C(=O)NO)cc1,J-Lat 9.2,fluorescence,>5 µM
C[C@H]1[C@@H](O)[C@@H](O)[C@H](O)CN1C,T CELLS,,>100 µg/mL
CCCCn1c(=O)c2ccccc2c2cc(C(O)(C(F)(F)F)C(F)(F)F)cc(C)c21,Replicon cells,tetrazolium,31.9 µM
CCOC(=O)COc1ccc(CO)cc1,HEK 293,,>20 µM
CCOc1nc(N)nc2ccc(-c3cccc(NS(=O)(=O)C4CCS(=O)(=O)C4)c3)nc12,Huh7,,>20 µM
O=C(N/N=C/c1cc(O)cc(O)c1)Nc1cccc2nsnc12,Cf2Th-CD4/CCR5,luminescence,>112 µM
O=C(Oc1ccc(Br)cc1C(=O)Nc1ccc(Cl)c(Cl)c1)c1cnc(Cl)cn1,Mono Mac 6,MTT,5.7 µM
O=C(O)CC1CC(=O)Oc2c1ccc(O)c2O,HOS,,58 µM
CCCCn1c(=O)c2ccccc2c2cc(C(O)(C(F)(F)F)C(F)(F)F)c(OC)cc21,Replicon cells,tetrazolium,>40 µM
CC(C)COc1cccc(-c2ccc(C(=O)N(Cc3cccc(OCCCCCC(=O)OC(=O)O)c3)C(C)C)cc2)c1,RAJI,,>20 µM
O=C(NCCCl)Oc1ccc(Br)cc1C(=O)Nc1ccc(Cl)c(Cl)c1,Mono Mac 6,MTT,6.9 µM
Cc1nnsc1C(=O)NNC(=S)Nc1ccc2ccccc2c1,KBALB,MTT,>100 µM
Cc1cn([C@@H]2O[C@H](COC(c3ccccc3)(c3ccccc3)c3ccccc3)[C@@H](F)[C@H]2N=[N+]=[N-])c(=O)[nH]c1=O,HL-60,,>1000 µM
COc1cc(/C=N/NC(=O)Nc2cccc3nsnc23)cc(OC)c1OC,Cf2Th-CD4/CCR5,luminescence,>112 µM
CC(C)NC(=O)c1ccc(-c2ccc3nc(N)nc(OC(C)C)c3n2)cc1,Huh7,,>20 µM
CCOC(=O)CCCCCOc1cccc(CN(C(=O)c2ccc(-c3cccc([N+](=O)[O-])c3)cc2)C(C)C)c1,HEK 293,,>20 µM
CCCCN1C(c2sc(C)nc2C)=NNC1SCc1ccc(OC)cc1,143B,MTT,<100 µM
COc1ccc(/C=N/NC(=O)Nc2cccc3nsnc23)c(OC)c1,Cf2Th-CD4/CCR5,luminescence,101 µM
CCCCn1c(=O)c2ccccc2c2c(OC)c(C(O)(C(F)(F)F)C(F)(F)F)cc(OC)c21,Replicon cells,tetrazolium,>100 µM
CCOC(=O)CCCCCOc1cccc(CN(C(=O)c2ccc(-c3cccc(NC=O)c3)cc2)C(C)C)c1,HepG2,,>20 µM
Cc1cn([C@@H]2O[C@H](COC(c3ccccc3)(c3ccccc3)c3ccccc3)C[C@@H]2O)c(=O)[nH]c1=O,HL-60,,>1000 µM
CCCCn1c(=O)c2cc(OC)ccc2c2cc(C(O)(C(F)(F)F)C(F)(F)F)ccc21,Replicon cells,tetrazolium,9.6 µM
COc1ccc(/C=C/C(=O)c2c(OB(F)F)cc(/C=C/c3ccc(N(C)C)cc3)oc2=O)cc1,HCT116,MTT,>10 µM
Cc1nc(C)c(C(=O)NNC(=S)NC23CC4CC(CC(C4)C2)C3)s1,143B,MTT,>100 µM
CCOC(=O)COc1ccc(C(O)O)cc1,RAJI,,>20 µM
O=C(NCCCl)Oc1ccc(Cl)cc1C(=O)Nc1ccc(Cl)c(Cl)c1,Mono Mac 6,MTT,4.6 µM
CN1C[C@H](O)[C@@H](O)[C@@H]1CO,T CELLS,,>100 µg/mL
CCOc1nc(N)nc2ccc(-c3cccc(NS(=O)(=O)c4ccc(NC(C)=O)s4)c3)nc12,Huh7,,>20 µM

An empty or dashed field is not shown. CCn: concentration that lowers growth or viability of the cells by n%.